Measured values from several laboratories, pooled; numbers as filed in NIAID ChemDB.

Shared fields: growth or infection tests; organism: Hepatitis C virus; endpoint: EC50

Conditions beyond the fields shown may differ between rows. An empty or dashed field is not shown. ECn: concentration that inhibits the pathogen or its effect by n%. a–b is a range or a potency band.

| SMILES | strain or isolate | changes | read by | cell line | value |
|---|---|---|---|---|---|
| COC(=O)N[C@H](C(=O)N1CCC[C@H]1c1ncc(-c2ccc(-c3ccc(-c4cnc([C@@H]5CCCN5C(=O)[C@@H](NC(=O)OC)C(C)C)[nH]4)cc3)cc2)[nH]1)C(C)C | 1b | L31W | luciferase | ET | 0.0003 µM |
| CC(C)N(C(=O)c1ccc(Cl)cc1Cl)c1cc(-c2ccc(-c3nn[nH]n3)cc2)sc1C(=O)O | 1a | - | replicon / ELISA | - | 1–5 µM |
| COCCN(C(=O)C1CCC(C(F)(F)F)CC1)c1cc(-c2ccc(-c3cc4ncccn4n3)cc2)sc1C(=O)O | 1a | - | replicon / ELISA | - | 0.05–0.099 µM |
| Cc1ccc(NC(=S)Nc2ccc(Sc3cc(=O)n(C)c4ccc(C)cc34)cc2)cc1 | - | - | luciferase / replicon | Huh-Luc-Neo | 1–10 µM |
| COC(=O)C1=C(C)c2ccc(Cl)cc2-c2c(C3CCCCC3)c3ccc(C(=O)OC)cc3n2C1 | - | - | replicon | Huh7 | 0.01–1 µM |
| CC(=O)N1c2cccc(O)c2NC2=C(C(=O)CC(C)(C)C2)C1c1cc(Cl)ccc1Cl | 1b | - | luciferase / reporter gene / replicon | - | >100 µM |
| O=C(O)c1ccc2c(C3CCCCC3)c3n(c2c1)CNc1ccccc1-3 | - | - | replicon | Huh7 | 0.01–1 µM |
| CNC(=O)c1c(-c2ccccc2)oc2ccc(OC)c(C)c12 | - | - | replicon | Huh7 | >30 µM |
| Cn1c(=O)cc(Sc2ccc(N)cc2)c2cccnc21 | - | - | luciferase / replicon | Huh-Luc-Neo | <1 µM |
| NC(=S)Nc1cccc(OCCCCCOc2cccc3ncccc23)c1 | - | - | reporter gene / fluorescence | Ava5-EG(delta4AB)SEAP | 0.001–1 µM |
| O=C(O)c1ccc2c(C3CCCCC3)c3n(c2c1)CC=Cc1ncccc1-3 | - | - | replicon | Huh7 | 1–10 µM |
| CCOc1nc(NCc2ccc(F)cc2)nc2ccc(-c3ccc(NC(N)=O)cc3)nc12 | - | - | replicon | - | <0.1 µM |
| CC(C)N(C(=O)c1ccc(Cl)cc1F)c1cc(-c2ccccc2)sc1C(=O)O | 1a | - | luciferase / replicon | - | 1–5 µM |
| CCCCCN(C)c1ccc(N(C(N)=O)c2nc(-c3ccccn3)cs2)cc1C(F)(F)F | - | - | - | - | <1 µM |
| CC1CCC(C(=O)N(c2cc(-c3ccc(-c4cc5ncccc5o4)cc3)sc2C(=O)O)C2CCOCC2)CC1 | 1b | - | replicon / ELISA | - | <0.001 µM |
| CNC(=O)c1c(-c2ccc(F)cc2)oc2cc(N(C)S(C)(=O)=O)c(OCC(=O)O)cc12 | - | - | replicon | Huh7 | <30 µM |
| CCCCCOc1ccc(N(C(=O)c2cc(C)on2)c2nc(-c3nc4ccccc4s3)cs2)cc1C(F)(F)F | - | - | - | - | <1 µM |
| CC1(C)CC(=O)C2=C(C1)Nc1c(O)cccc1N(C(=O)c1ccccn1)[C@H]2c1ccc(OCc2ccccc2)cc1F | 1b | - | luciferase / reporter gene / replicon | - | 0.58 µM |
| NC(=S)Nc1cccc(OCCCCCOc2ccc(N3CCCC3)cc2)c1 | - | - | reporter gene / fluorescence | Ava5-EG(delta4AB)SEAP | 0.001–1 µM |
| CC1(C)CC(=O)C2=C(C1)Nc1c(O)cccc1NC2c1cnc(Oc2ccccc2Br)s1 | 1b | - | luciferase / reporter gene / replicon | - | 13.17 µM |
| CCc1cc2c(C(=O)NC)c(-c3ccc(F)cc3)oc2cc1C(C)(C)O | - | - | replicon | Huh7 | <1 µM |
| CC(C)COc1ccc(N(C(N)=O)c2nc(-c3ccccn3)cs2)cc1C(F)(F)F | - | - | - | - | <1 µM |
| CNC(=O)c1c(-c2ccc(F)cc2)oc2cc(NS(C)(=O)=O)ccc12 | - | - | replicon | Huh7 | <10 µM |
| CC1(C)CC(=O)C2=C(C1)Nc1c(O)cccc1N(C(=O)CCC(=O)Nc1ccccc1F)C2c1ccc(OCc2ccccc2)cc1Cl | 1b | - | luciferase / reporter gene / replicon | - | 1.3 µM |
| CCOc1nc(NCc2ccc(F)cc2)nc2ccc(-c3ccc(NC(=O)C4(N)CC4)cc3)nc12 | - | - | replicon | - | <0.1 µM |
| Cn1c(=O)cc(Sc2ccc(I)cc2)c2ccccc21 | - | - | luciferase / replicon | Huh-Luc-Neo | 1–10 µM |
| NC(=O)N(c1ccc(OCC2CCCCC2)c(F)c1)c1nc(-c2ccc3c(c2)NC(=O)CO3)cs1 | - | - | - | - | >10 µM |
| CC1CCC(C(=O)N(c2cc(-c3ccc(-c4cn5ccsc5n4)cc3)sc2C(=O)O)C2CCOCC2)CC1 | 1a | - | replicon / ELISA | - | 0.01–0.049 µM |
| NC(=S)Nc1ccc2c(c1)Cc1cc(N(Cc3ccccc3)Cc3ccccc3)ccc1-2 | - | - | reporter gene / fluorescence | Ava5-EG(delta4AB)SEAP | 0.001–1 µM |
| CNC(=O)c1c(-c2ccc(F)cc2)oc2cc(N3CCC(F)(F)CC3)c(OC(C)C)cc12 | - | - | replicon | Huh7 | <1 µM |
| O=C(O)c1sc(-c2ccc(-c3cc4ncccc4o3)cc2)cc1N(C(=O)C1CCC(C(F)(F)F)CC1)C1CCOCC1 | 1a | - | replicon / ELISA | - | 0.01–0.049 µM |
| CCCCCCCCCc1ccc(N(C(=O)OCOP(=O)(O)O)c2nc(-c3cccnc3)c(F)s2)cc1C(F)(F)F | - | - | - | - | <1 µM |
| CCCCCCNC(=S)Nc1cccc(OCCCCCc2ccccc2)c1 | - | - | reporter gene / fluorescence | Ava5-EG(delta4AB)SEAP | 0.001–1 µM |
| CC(C)N(C(=O)c1ccc(Cl)cc1F)c1cc(-c2ccc(-c3cn4ccccc4n3)cc2)sc1C(=O)O | 1a | - | luciferase / replicon | - | 0.01–0.05 µM |
| COCCN(C(=O)C1CCC(C)CC1)c1cc(-c2ccc(-c3cc4ccccc4o3)cc2)sc1C(=O)O | 1b | - | replicon / ELISA | - | 0.001–0.0049 µM |
| CCCCn1c(=O)c2cc(OC)ccc2c2cc(C(O)(C(F)(F)F)C(F)(F)F)c3c(c21)OCO3 | 1b | - | PCR | LucNeo2 cells | 0.14 µM |
| COc1ccccc1OCCCCCOc1cccc(NC(N)=S)c1 | - | - | reporter gene / fluorescence | Ava5-EG(delta4AB)SEAP | 0.001–1 µM |
| Nc1ncc(-c2ccc3nc(NCc4ccc(S(N)(=O)=O)cc4)nc(NC4CC4)c3n2)s1 | - | - | replicon | - | <0.1 µM |
| O=C(N[C@@H](C(=O)N1CCC[C@H]1c1ncc(-c2ccc(-c3ccc(-c4cnc([C@@H]5CCCN5C(=O)[C@H](NC(=O)C5CC5)c5ccccc5)s4)cc3)cc2)s1)c1ccccc1)C1CC1 | genotype 1b | Y93N | luciferase / reporter gene | Huh7.5 | 0.003821 µM |
| CC(C)N(C(=O)c1ccc(C(F)(F)F)cc1C(F)(F)F)c1cc(-c2ccc(-c3cc4ncccn4n3)cc2)sc1C(=O)O | 1b | - | luciferase / replicon | - | 0.1–0.5 µM |
| CC1(C)CC(=O)C2=C(C1)Nc1c(O)cccc1NC2c1ccc(OCc2ccccc2Cl)cc1Cl | 1b | - | luciferase / reporter gene / replicon | - | 2.14 µM |
| COCC(C)N(C(=O)C1CCC(C)CC1)c1cc(-c2ccc(-c3cc4ncccn4n3)cc2)sc1C(=O)O | 1a | - | replicon / ELISA | - | 0.005–0.0099 µM |
| Cc1ccc(Sc2cc(=O)n(C)c3ccc(F)cc23)cc1 | - | - | luciferase / replicon | Huh-Luc-Neo | 1–10 µM |
| CC(CCOc1ccccc1)CCOc1cccc(NC(N)=S)c1 | - | - | reporter gene / fluorescence | Ava5-EG(delta4AB)SEAP | 0.001–1 µM |
| CCCCOc1ccc(N(C(N)=O)c2nc(-c3ccc(F)c(F)c3)cs2)cc1C(F)(F)F | - | - | - | - | <1 µM |
| Cn1cncc1C1Nc2cccc(O)c2NC2=C1C(=O)CC(C)(C)C2 | 1b | - | luciferase / reporter gene / replicon | - | >10 µM |
| COc1cc2c(C(=O)NC3CC3)c(-c3ccc(F)cc3)oc2cc1-c1c(C)noc1C | - | - | replicon | Huh7 | <1 µM |
| Cc1cc(Br)ccc1C(=O)N(c1cc(-c2ccc(-c3cn4ccccc4n3)cc2)sc1C(=O)O)C(C)C | 1a | - | luciferase / replicon | - | 0.1–0.5 µM |
| NS(=O)(=O)c1ccc(CNc2nc(C3CC3)c3nc(-c4ccc(C(=O)NC5CC5)cc4)ccc3n2)cc1 | - | - | replicon | - | <0.1 µM |
| CCC1(C)CC(=O)C2=C(C1)Nc1c(O)cccc1N(C(=O)C(C)C)C2c1ccc(OCc2ccccc2)cc1F | 1b | - | luciferase / reporter gene / replicon | - | 1.26 µM |
| O=C(O)c1sc(-c2ccc(-c3cn4ccccc4n3)cc2)cc1N(C(=O)C1CCC(C(F)(F)F)CC1)C1CCOCC1 | 1b | - | replicon / ELISA | - | 0.05–0.099 µM |
| COc1ccc2c(c1)c(Sc1ccc(N)cc1)cc(=O)n2C | - | - | luciferase / replicon | Huh-Luc-Neo | <1 µM |
| COCCN(C(=O)C1CCC(C)CC1)c1cc(-c2ccc(-c3cc4ncccn4n3)cc2)sc1C(=O)O | 1a | - | replicon / ELISA | - | 0.001–0.0049 µM |
| CC(C)Nc1nc(Nc2ccc(F)cc2)nc2ccc(-c3ccc(F)cc3)nc12 | - | - | replicon | - | 0.25–2 µM |
| CCN(CC)c1nc(COc2cc3c(C(=O)NC)c(-c4ccc(F)cc4)oc3cc2N(C)S(C)(=O)=O)ns1 | - | - | replicon | Huh7 | <1 µM |
| Fc1ccc(-c2ccc3nc(NCc4cccnc4)nc(NCC(F)(F)F)c3n2)cc1 | - | - | replicon | - | <0.1 µM |
| COC(=O)c1ccc2c(C3CCCCC3)c3n(c2c1)CC(CO)Cc1ccccc1-3 | - | - | replicon | Huh7 | 0.01–1 µM |
| NS(=O)(=O)c1ccc(CNc2nc(NCC(F)(F)F)c3nc(-c4ccc(NC(=O)OCCN5CCCC5)cc4)ccc3n2)cc1 | - | - | replicon | - | <0.1 µM |
| Cc1cc(Br)ccc1C(=O)N(c1cc(-c2ccc(-c3cc4ncccn4n3)cc2)sc1C(=O)O)C(C)C | 1b | - | replicon / ELISA | - | 0.1–0.5 µM |
| COc1c(-c2ccc3cc(NS(C)(=O)=O)ccc3c2)cc(-n2ccc(=O)[nH]c2=O)cc1C(C)(C)C | genotype 1a H77 | S556G | luciferase | Huh7 | 0.029 µM |
| CCOc1nc(NCc2ccc(F)cc2)nc2ccc(-c3ccc(NC(=O)CN)cc3)nc12 | - | - | replicon | - | <0.1 µM |
| CNC(=O)c1c(-c2ccc(F)cc2)oc2cc(N(CCO)S(C)(=O)=O)c(C3CC3)cc12 | Con1 genotype 1b | - | luciferase | Huh7.5 | 0.0169 µM |
| CCCCCOc1ccc(N(C(=O)CC(=O)OC)c2nc(-c3ccc(F)cc3)cs2)cc1F | - | - | - | - | <1 µM |

The last 6 rows once more:

SMILES | strain or isolate | changes | read by | cell line | value
NS(=O)(=O)c1ccc(CNc2nc(NCC(F)(F)F)c3nc(-c4ccc(NC(=O)OCCN5CCCC5)cc4)ccc3n2)cc1 | - | - | replicon | - | <0.1 µM
Cc1cc(Br)ccc1C(=O)N(c1cc(-c2ccc(-c3cc4ncccn4n3)cc2)sc1C(=O)O)C(C)C | 1b | - | replicon / ELISA | - | 0.1–0.5 µM
COc1c(-c2ccc3cc(NS(C)(=O)=O)ccc3c2)cc(-n2ccc(=O)[nH]c2=O)cc1C(C)(C)C | genotype 1a H77 | S556G | luciferase | Huh7 | 0.029 µM
CCOc1nc(NCc2ccc(F)cc2)nc2ccc(-c3ccc(NC(=O)CN)cc3)nc12 | - | - | replicon | - | <0.1 µM
CNC(=O)c1c(-c2ccc(F)cc2)oc2cc(N(CCO)S(C)(=O)=O)c(C3CC3)cc12 | Con1 genotype 1b | - | luciferase | Huh7.5 | 0.0169 µM
CCCCCOc1ccc(N(C(=O)CC(=O)OC)c2nc(-c3ccc(F)cc3)cs2)cc1F | - | - | - | - | <1 µM